# Source: patent US20080274976A1, “USES OF NOVEL POTASSIUM CHANNEL BLOCKERS” (priority 2002, published 2008)
# Assay: Injection of the peptide into mice (i.c.v., i.t., i.p.)
compound,measurement,setting,value
CC(C)C[C@@H]1NC(=O)[C@H](CO)NC(=O)[C@@H]2CSSC[C@@H]3NC(=O)[C@@H]4C[C@@H](O)CN4C(=O)[C@H](CC(N)=O)NC(=O)[C@H](CCCNC(=N)N)NC(=O)[C@H](CCCCN)NC(=O)[C@H](CSSC[C@H](NC(=O)[C@H](CO)NC(=O)[C@@H]4C[C@@H](O)CN4C(=O)[C@@H](N)CC(C)C)C(=O)N2)NC(=O)[C@H](C)NC(=O)[C@@H]2C[C@@H](O)CN2C(=O)[C@H](C(C)C)NC(=O)[C@@H]2C[C@@H](O)CN2C(=O)[C@H](CSSC[C@@H](C(=O)N[C@H](C(N)=O)[C@@H](C)O)NC3=O)NC(=O)[C@H](CC(C)C)NC(=O)[C@H](CCCNC(=N)N)NC(=O)[C@H](CC(C)C)NC(=O)[C@H](CC(N)=O)NC1=O,observed effect after i.c.v. injection,"4 nmoles, i.c.v.",seizures were observed
same,symptomatology upon injection i.c.v.,i.c.v.,obvious symptomatology
same,effects after i.p. injection,i.p.,no visible effects
same,symptomatology upon injection i.t.,i.t.,obvious symptomatology
